Reference: PubChem BioAssay AID1259414 (Drosophila RNAi Screening Center, 2018)

- Aim: 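Host factors increasing or decreasing Wolbachia levels in cultured fly cells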 (primary screen)
- Cell system: Drosophila JW18 cells infected with Wolbachia
- Knock-down reagent: long dsRNA against Drosophila genes, 0.25 µg dsRNA per well of a 384-well plate
- Timing: 5 days
- Conditions: cells persistently infected with Wolbachia before knock-down; no added drug
- Read-out: 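Imaged fluorescence in situ signal for Wolbachia 23S rRNA per DAPI-counted host cell, given as a robust z-score within each plate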
- Direction: Wolbachia per cell robust z: higher = more Wolbachia per host cell than the plate typical
- Rule for the call: 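Hit when robust z is 1.5 or more, or -1.5 or less, in at least two of three replicates; excludes dsRNAs with several or no targets, genes not expressed in JW18 and well A1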
The screen tested about 24,000 reagents; shown is a random part of those that have a named target and a result. Of all reagents, about 1,210 (5%) were called active. 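Inactive calls also include excluded dsRNAs with several or no targets, genes unexpressed in JW18, and well A1, regardless of score.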 Unmarked entries are inactive. The numbers tell different reagents against one gene apart.

Target gene,dsRNA no.,"Wolbachia per cell robust z, rep 1","Wolbachia per cell robust z, rep 2","Wolbachia per cell robust z, rep 3"
ERp44,1,-0.381,1.21,1.5
senju,1,0.131 (active),-3.43,-3.25
Nubp2,1,-1.28,0.359,-0.801
CG3704,1,-0.241,-1.24,-1.3
CG3704,2,-0.406,-0.679,-0.756
CG3704,3,-0.269,-0.561,-0.0343
CG6424,1,0.151,0.767,1.5
CG6424,2,-0.574,-0.584,-0.268
CG30087,1,0.84,0.58,-0.612
CG30087,2,-0.378,-0.502,1.45
CG34229,1,1.14,0.264,1.32
CG34229,2,-0.677,0.6,-1.12
mask,1,-5.16,0.326,1.43
mask,2,-0.213 (active),1.72,2.11
mask,3,0.621,-1.03,-2.09
mask,4,-0.0155,0.69,0.000285
CG6656,1,1.36,-0.163,0.534
Nuak,1,-0.294 (active),-7.51,-4.08
Nuak,2,1.13,0.76,0.485
Nuak,3,-4.83 (active),-0.398,-6.73
ppk12,1,-3.56,-5.42,0.109
CG17470,1,1.16,-7.33,1.33
CG8501,1,-1.06,-0.874,-1.17
Hel25E,1,-0.892,-0.727,0.717
Hel25E,2,-0.302,-0.075,-0.22
Clp,1,0.637,-0.581,2.39
CG6870,1,-0.685,-0.659,1.55
CG6870,2,-0.777,2.27,0.913
CR31824,1,0.921,0.657,-9.35
CR31824,2,-0.537,-2.1,-0.835
brm,1,1.65 (active),1.83,0.529
brm,2,-0.552,-2.84,0.316
Spn,1,2.33,0.161,0.68
Spn,2,0.633,-0.885,-0.248
Spn,3,-0.103,-0.102,0.464
SamDC,1,-0.744,-0.778,-8.06
CG12817,1,0.222,-7.4,-5.29
HnRNP-K,1,0.499,0.765,0.376
HnRNP-K,2,-2.64,0.256,0.0483
HnRNP-K,3,1.61,-1.36,0.888
HnRNP-K,4,-0.115,0.271,0.0502
Lip1,1,-0.358,0.664,-0.807
Hex-t1,1,-1.96,0.586,-1.14
Hex-t1,2,-1.81,-0.243,-1.35
CG4424,1,0.618,-0.713,-0.399
nst,1,-1.44,0.0452,0.175

Entries above with an active call (5):
Target gene,dsRNA no.,"Wolbachia per cell robust z, rep 1","Wolbachia per cell robust z, rep 2","Wolbachia per cell robust z, rep 3"
senju,1,0.131 (active),-3.43,-3.25
mask,2,-0.213 (active),1.72,2.11
Nuak,1,-0.294 (active),-7.51,-4.08
Nuak,3,-4.83 (active),-0.398,-6.73
brm,1,1.65 (active),1.83,0.529
